Here are results for 1 substance from publication PMC7429351, “Comparison of ligand binding and conformational stability of human calmodulin with its homolog from the malaria parasite Plasmodium falciparum” (FASEB BioAdvances, 2020).

Bounds are passed on as bounds.

The target of the assay is Melittin (UniProt P01501). As to the kind of experiment: ITC.

The term Kd denotes the free concentration of one partner at which half of the binding sites on the other are occupied at equilibrium, for simple one-to-one binding. High values mean a looser complex, low ones a tighter complex. Broadly, the stoichiometry N is the number of molecules, sites or subunits per partner or assembly. The substance “Human recombinant calmodulin (CaM) (from UniProt P0DP23 1-149) (natural protein)” yielded a Kd of less than 0.03 µM, a dH of 48.1 kJ/mol and a stoichiometry N of 1.
